A mixed list of measured activities; the numbers were collected in NIAID ChemDB.

Shared fields: growth or infection tests; organism: Mycobacterium tuberculosis

Conditions beyond the fields shown may differ between rows. a–b is a range or a potency band. MIC bound: limit read from a one-dose screen. Blank or dashed fields: not listed here. ECn is the concentration giving n% inhibition of infection, replication or growth. Inhibition is in % at the dose shown (toxicity tests: loss of growth or viability). A number after MIC or MFC names an inhibition level or a share of isolates.

compound	setting	measure	mutations	dose	method	strain	value
Cc1ccc2c(=O)n(-c3ccc(Cl)c(Cl)c3)c(=O)oc2c1	-	MIC	-	-	-	CNCTC MY331/88	8 µM
CN(C)CC1CCC/C(=C\c2ccc(OC(=O)c3ccccc3)cc2)C1=O	-	EC50	-	-	-	H37Rv	<12.5 µg/mL
CC1CCCC(NCCNCC(c2ccccc2)c2ccccc2)C1C	-	MIC	-	-	-	-	18.8 µM
C[N+](C)(C)/C=C/c1ccc([N+](=O)[O-])o1.[Br-]	-	MIC	-	-	BACTEC	H37Rv	≥12.5 µg/mL
Cc1ccc(NC(=S)NNC(=O)c2ccncc2)c(C)c1	-	MIC	-	-	-	WT	2.59 µM
O=c1oc2ccc(Cl)cc2c(=O)n1-c1cccc(F)c1	-	MIC	-	-	-	CNCTC MY331/88	16 µM
CCCCCCCCCCOc1ccccc1NC(=O)OCCN1CCOCC1	-	MIC	-	-	-	My 331/88	32 µM
CCOC(=O)c1cn(C)c2c(cc([N+](=O)[O-])c3cccnc32)c1=O	-	MIC90	gyrA mutation D94G gyrB mutation D500N	-	-	H37Rv	>50 µM
CNC(=S)SC1=NS(=O)(=O)c2ccccc2N1	-	inhibition	-	128 µg/mL	BACTEC	H37Rv	100%
O=C(Oc1ccc(Cl)cc1C(=O)Nc1ccc(C(F)(F)F)cc1)c1cnccn1	14 d	MIC	-	-	-	multidrug resistant 9449/2006	0.125 µM
O=C(/C=C/c1ccc(Cl)c(Cl)c1)Oc1ccc(/C=C2\CCCCC2=O)cc1	-	inhibition	-	12.5 µg/mL	-	H37Rv	47%
O=c1oc2ccc(Br)cc2c(=O)n1-c1cccc([N+](=O)[O-])c1	-	MIC	-	-	-	CNCTC MY331/88	8 µM
CCCCC(CC)CN1CN(CC(CC)CCCC)CC(C)(NCCNN2CCCC2)C1	-	MIC	-	-	-	-	50 µM
CC1=CC(=O)c2c(O)cccc2C1=O	-	MIC	-	-	-	H37Rv (ATCC 27294)	4.88 µg/mL
CCCCCCCOc1ccc(NC(=O)OCCN2CCCCCC2)cc1	-	MIC	-	-	-	My 331/88	8 µM
C/C(=N\OCCc1nnc(/C=C/c2ccccc2)o1)c1ccccc1	-	inhibition	-	12.5 µg/mL	-	-	7–56%
COc1ccccc1NC(=O)C1=C(C)NC(C)=C(C(=O)Nc2ccccc2OC)C1c1ccc(SC)cc1	-	EC50	-	-	-	H37Rv	<2.5 µg/mL
O=C(N/N=C/c1ccncc1)c1ccc(F)cc1	-	inhibition	-	6.25 µg/mL	-	H37Rv	13%
O=C(O)C1C2C=CC(C2)C1c1c2ccc(=O)c(O)c-2oc2c(O)c(O)ccc12	-	inhibition	-	12.5 µg/mL	BACTEC	H37Rv	10%
C/C(=N\OCCc1nnc(Nc2ccc(Br)cc2)o1)c1ccccc1	-	inhibition	-	12.5 µg/mL	-	-	7–56%
CC1=C(C(=O)Nc2cccc([N+](=O)[O-])c2)C(c2ccccc2)C(C(=O)Nc2cccc([N+](=O)[O-])c2)=C(C)N1	-	inhibition	-	2.5 µg/mL	-	H37Rv	94%
O=C(Oc1cc(Cl)ccc1C(=O)Nc1ccc(Br)cc1)c1cnccn1	14 d	MIC	-	-	-	H37Rv 331/88	2 µM
CCOC(=O)c1cn(CC)c2c(cc([N+](=O)[O-])c3cccnc32)c1=O	-	MIC90	gyrA mutation A90V gyrB mutation Q540V	-	-	H37Rv	>50 µM
Cc1c(F)c(N2CCNC(C)C2)cc2c1c(=O)c(C(=O)O)cn2C1CC1	-	MIC90	-	-	-	82 strains	2 µg/mL
Cc1c2ccncc2c(C)c2c1[nH]c1ccc(O)cc12	-	MIC bound	-	-	resazurin	H37Rv	<6.25 µg/mL
C[C@H]1COc2c(N3CCN(C)CC3)c(F)cc3c(=O)c(C(=O)O)cn1c23	-	MIC50	-	-	-	37 strains (drug-resistant)	1 µg/mL
CC1COc2c(N3CCN(C)CC3)c(F)cc3c(=O)c(C(=O)O)cn1c23	-	MIC	-	-	-	ATCC 35820	0.5 µg/mL
NNC(=O)c1ccncc1	-	MIC	-	-	BACTEC	HN878	0.049 µg/mL
C/C(=N\OCCc1nnc(N)o1)c1ccccc1	-	inhibition	-	12.5 µg/mL	-	-	7–56%
CCCCCCCCCCCCCCCCCCNCCNC12CC3CC(CC(C3)C1)C2	-	MIC	-	-	-	-	25 µM
CN(C)CC1CCC/C(=C\c2ccc(OC(=O)c3ccc(Cl)cc3)cc2)C1=O	-	inhibition	-	12.5 µg/mL	-	H37Rv	99%
Fc1ccccc1CCNCCNCCC1=CCCCC1	-	MIC	-	-	-	-	25 µM
Cc1ccc2c(=O)n(-c3cccc(F)c3)c(=O)oc2c1	-	MIC	-	-	-	CNCTC MY331/88	8 µM
O=C1CCCC/C1=C\c1ccc(OC(=O)c2ccccc2)cc1	-	EC50	-	-	-	H37Rv	<12.5 µg/mL
CC(C)N=c1cc2n(-c3ccc(Cl)cc3)c3ccccc3nc-2cc1Nc1ccc(Cl)cc1	multidrug-resistant	MIC	-	-	-	14	0.12 µg/mL
CC(C)c1ccc2c(c1)CC[C@H]1[C@](C)(CNCCNCC(c3ccccc3)c3ccccc3)CCC[C@]21C	-	MIC	-	-	-	-	12.5 µM
CC1CN(c2cc3c(cc2F)c(=O)c(C(=O)O)cn3-c2ccc(F)cc2F)CCN1	-	MBC	-	-	-	ATCC 35822	4 µg/mL
CCCCCCCCN1C(=O)CC(C)C1=O	-	MIC	-	-	-	Clinical isolate (isoniazid-resistant)	≤20 µg/mL
CC1=C(C(=O)Nc2ccc(Cl)cc2)C(c2ccc(O)cc2)C(C(=O)Nc2ccc(Cl)cc2)=C(C)N1	-	inhibition	-	2.5 µg/mL	-	H37Rv	79%
O=C1CCCN1CCCNCCNCCc1ccccc1F	-	MIC	-	-	-	-	50 µM
COc1ccc2c(=O)n(-c3ccccc3)c(=O)oc2c1	-	MIC	-	-	-	CNCTC MY331/88	32 µM
CC(=O)NC[C@H]1CN(c2ccc(N3CCN(c4ccc([N+](=O)[O-])s4)CC3)c(F)c2)C(=O)O1	-	MIC	-	-	-	V-3093	≤0.125 µg/mL
Nc1nc2c(c(=O)[nH]1)CN(CCCN1CCOCC1)CN2	-	MIC bound	-	-	BACTEC	H37Rv	>12.5 µg/mL
CCCCCCCCCN1C(=O)CC(C)(SCC(N)C(=O)O)C1=O	-	MIC	-	-	-	Clinical isolate (isoniazid-resistant)	≤20 µg/mL
COc1ccccc1NC(=O)OCC[NH+]1CCCC1	-	MIC	-	-	-	My 331/88	>1000 µM
O=c1oc2ccc(Cl)cc2c(=O)n1-c1ccc([N+](=O)[O-])cc1	-	MIC	-	-	-	CNCTC MY331/88	8 µM
CC[C@H]1OC(=O)[C@H](C)[C@@H](O[C@H]2C[C@@](C)(OC)[C@@H](O)[C@H](C)O2)[C@H](C)[C@@H](O[C@@H]2O[C@H](C)C[C@H](N(C)C)[C@H]2O)[C@](C)(O)C[C@@H](C)C(=O)[C@H](C)[C@@H](O)[C@]1(C)O	-	MIC	-	-	-	ATCC 35822	>8 µg/mL
Fc1ccc(CCNCCNCC2CCCO2)cc1	-	MIC	-	-	-	-	50 µM
NNC(=O)c1ccncc1	-	MIC	Isoniazid-resistant	-	absorbance	ATCC 35822	>200 µM
C[N+](C)(C)CC(=O)N/N=C/c1cccs1.[Cl-]	-	inhibition	-	12.5 µg/mL	BACTEC	H37Rv	14%
O=C(N/N=C/c1cccs1)c1ccccc1	-	EC50	-	-	-	H37Rv	>6.25 µg/mL
c1ccc(Nc2nnc(CCON=C(c3ccccc3)c3ccccc3)o2)cc1	-	inhibition	-	12.5 µg/mL	-	-	7–56%
Cn1c(=O)c2nc(-c3ccc(Cl)c(Cl)c3)c(-c3ccc(Cl)c(Cl)c3)nc2n(C)c1=O	-	MIC bound	-	-	BACTEC	H37Rv	>12.5 µg/mL
C(=C\c1nnc(CON=C(c2ccccc2)c2ccccc2)o1)/c1ccccc1	-	inhibition	-	12.5 µg/mL	-	-	7–56%
Cc1ccc2oc(=O)n(-c3ccc(C(F)(F)F)cc3)c(=O)c2c1	-	MIC	-	-	-	CNCTC MY331/88	4 µM
O=C1/C(=C/c2ccc(OC(=O)c3ccccc3)cc2)CCC/C1=C\c1ccc(OC(=O)c2ccccc2)cc1	-	inhibition	-	12.5 µg/mL	-	H37Rv	0%
C[C@@H]1CN(c2c(F)c(N)c3c(=O)c(C(=O)O)cn(C4CC4)c3c2F)C[C@H](C)N1	-	MIC	-	-	-	ATCC 35820	0.06 µg/mL
CCOC(=O)c1nc2ccccc2nc1Nc1ccc(C(=O)OC)s1	-	inhibition	-	6.25 µg/mL	resazurin	H37Rv	3%
O=C(Oc1ccc(Cl)cc1C(=O)Nc1ccc(Cl)c(Cl)c1)c1cnccn1	-	MIC	-	-	-	extensively drug resistant strain	3.16–6.32 µM
O=c1oc2ccc(F)cc2c(=O)n1-c1cccc(Cl)c1	-	MIC	-	-	-	CNCTC MY331/88	16 µM
CCCCCCCCCN1C(=O)CC(CC)C1=O	-	MIC	-	-	-	H37Rv	≤20 µg/mL
NNC(=O)Cc1cc(=O)[nH][nH]1	-	inhibition	-	12.5 µg/mL	BACTEC	H37Rv	15%
O=C(NNC(=S)Nc1c(Cl)cccc1Cl)c1ccncc1	-	MIC	-	-	-	WT	1.14 µM
Nc1ccc(C(=O)O)c(O)c1	21 d	MIC	-	-	-	H37Rv 331/88	62.5 µM
OCCN=C1c2ccccc2C2C(c3ccccc31)C1c3ccccc3C(=NCCO)c3ccccc3C21	-	inhibition	-	12.5 µg/mL	BACTEC	H37Rv	29%
CCCCCCCCCN1C(=O)C=CC1=O	-	MIC	-	-	-	H37Ra	≤20 µg/mL
CCCCCCOc1ccc(NC(=O)OCCN(C)C)cc1	-	MIC	-	-	-	My 331/88	32 µM
CC(=O)N1C(Nc2ccccc2)CCN1c1ccccc1	-	MIC bound	-	-	resazurin	H37Rv	>6.25 µg/mL
CC1(C)[C@H]2CC[C@@H](CNCCNCCc3ccc(Cl)cc3Cl)[C@@H]1C2	-	MIC	-	-	-	-	25 µM
O=CNc1ccc(S(=O)(=O)c2ccc(NC=O)cc2)cc1	-	MIC	-	-	BACTEC	H37Rv	≥12.8 µg/mL
CC(=O)NC[C@H]1CN(c2ccc(N3CCOCC3)c(F)c2)C(=O)O1	-	MIC	-	-	-	Strain 370	0.25 µg/mL
Cc1ccc(CCNC(=S)SC[C@H](NC(=O)CC[C@H](N)C(=O)O)C(=O)NCC(=O)O)cc1	-	MIC bound	-	-	resazurin	H37Rv	>6.25 µg/mL
NNC(=O)c1ccncc1	-	MIC	-	-	-	WT	0.72 µM
CN1C2CCC1CC(O)C2	-	inhibition	-	12.5 µg/mL	BACTEC	H37Rv	-3%
CC(NCCNC[C@@H]1CC[C@H]2C[C@@H]1C2(C)C)c1cccc2ccccc12	-	MIC	-	-	-	-	50 µM
O=C(Oc1ccc(Cl)cc1)c1cnccn1	14 d	MIC	-	-	-	331/88	250 µM
COc1cccc2c1C(=O)c1c(O)c3c(c(O)c1C2=O)C[C@@](O)(/C(C)=N/NC(=O)c1ccc(Cl)c(Cl)c1)C[C@H]3O[C@H]1C[C@H](N)[C@H](O)[C@H](C)O1	-	MIC	-	-	-	KM-R	12.5 µg/mL
NNC(=O)c1ccncc1	-	MIC	-	-	-	Strain 35	0.125 µg/mL
O=C(N/N=C/c1ccc(Cl)cc1)c1ccc(F)cc1	-	MIC	-	-	-	H37Rv	>6.25 µg/mL
Cc1ccc(C=C(C#N)C#N)o1	-	MIC bound	-	-	BACTEC	H37Rv	>12.5 µg/mL
N#Cc1ccc(-n2c(=O)oc3ccccc3c2=O)cc1	-	MIC	-	-	-	CNCTC MY331/88	32 µM
O=C(N/N=C/c1ccc(Br)cc1)c1ccc(F)cc1	-	MIC	-	-	-	H37Rv	>6.25 µg/mL
Cn1ccnc1CCc1ccc(F)cc1F	-	inhibition	-	6.25 µg/mL	resazurin	H37Rv	4%
CC1=C(C(=O)Nc2cccc([N+](=O)[O-])c2)C(c2ccccc2O)C(C(=O)Nc2cccc([N+](=O)[O-])c2)=C(C)N1	-	EC50	-	-	-	H37Rv	<2.5 µg/mL
CCCCc1c(O)c(N=NC(N)=S)c2ccccc2c1O	-	MIC	-	-	BACTEC	H37Rv	≥12.5 µg/mL
CCCCCOc1ccccc1NC(=O)OCC[NH+]1CCCC1	-	MIC	-	-	-	My 331/88	62.5 µM
O=C1C(=O)N(c2ccccc2)C2(c3ccccc3)C(=Nc3ccccc3)OC(c3ccccc3)=C12	-	MIC bound	-	-	BACTEC	H37Rv	>12.5 µg/mL
CC[C@H]1OC(=O)[C@H](C)[C@@H](O[C@H]2C[C@@](C)(OC)[C@@H](O)[C@H](C)O2)[C@H](C)[C@@H](O[C@@H]2O[C@H](C)C[C@H](N(C)C)[C@H]2O)[C@](C)(OC)C[C@@H](C)C(=O)[C@H](C)[C@@H](O)[C@]1(C)O	-	MIC90	-	-	-	MDR	>8 µg/mL
NC(CCOCCP(=O)(O)CCOCCC(N)C(=O)O)C(=O)O	-	inhibition	-	12.5 µg/mL	BACTEC	H37Rv	17%
O=C(NNC(=S)Nc1ccc([N+](=O)[O-])cc1)c1ccncc1	-	MIC	-	-	-	INH resistant	1.2 µM